For assay [1], the target named is human Kv1.3 channel (human), P22001. In words: cell-based or functional assay.
Assay [2] addresses T1, human Kv1.1 channel (human), Q09470.
T1 chain: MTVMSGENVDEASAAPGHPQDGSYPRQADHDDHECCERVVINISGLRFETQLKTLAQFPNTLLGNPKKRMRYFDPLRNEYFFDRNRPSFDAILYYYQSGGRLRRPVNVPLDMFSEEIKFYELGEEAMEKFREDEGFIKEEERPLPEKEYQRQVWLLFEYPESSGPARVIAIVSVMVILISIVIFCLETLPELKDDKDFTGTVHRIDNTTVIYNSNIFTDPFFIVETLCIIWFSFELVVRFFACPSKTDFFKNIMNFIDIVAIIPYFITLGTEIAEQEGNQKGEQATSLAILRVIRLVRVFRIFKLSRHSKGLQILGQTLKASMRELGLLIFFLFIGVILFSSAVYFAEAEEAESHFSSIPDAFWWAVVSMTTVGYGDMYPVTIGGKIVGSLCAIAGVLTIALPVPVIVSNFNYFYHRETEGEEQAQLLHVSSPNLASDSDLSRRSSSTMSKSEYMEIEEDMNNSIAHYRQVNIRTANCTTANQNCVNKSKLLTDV
Put plainly: cell-based or functional assay.

This note sets out measurements from US20090281028A1.

In assay [1], GVIINVRCKISRQCLEPCKKAGMRFGKCMNGKCHCTPK (modifications not checked) [OSK1 K7R] displayed a Kv1.3 IC50 (IonWorks electrophysiology) of 13.2 pM, a WB/IFNg IC50 (human whole blood) of 0.071 nM and a WB/IL-2 IC50 (human whole blood) of 0.078 nM. The Kv1.1 IC50 (IonWorks electrophysiology) in assay [2] is less than 1.52 pM.
Taken in the same sequence, the figures for GVIINVKCKISRQCLERCKKAGMRFGKCMNGKCHCTPK (modifications not checked) [OSK1 P17R] were 10.4 pM, 0.355 nM, 0.202 nM and less than 1.52 pM.
In the case of GVIINVKCKISRQCLEPCKKAGMRFGKCMNGRCHCTPK (modifications not checked) [OSK1 K32R], in assay [1], the Kv1.3 IC50 (IonWorks electrophysiology) was determined as 30.8 pM, the WB/IFNg IC50 (human whole blood) came to 0.034 nM and the WB/IL-2 IC50 (human whole blood) came to 0.028 nM. The Kv1.1 IC50 (IonWorks electrophysiology) in assay [2] came out at 7.24 pM.
Turning to GVIINVKCKISRRCLEPCKKAGMRFGKCMNGKCHCTPK (modifications not checked) [OSK1 Q13R], in assay [1], the Kv1.3 IC50 (IonWorks electrophysiology) worked out at 15.3 pM, the WB/IFNg IC50 (human whole blood) was determined as 0.172 nM and the WB/IL-2 IC50 (human whole blood) turned out to be 0.16 nM. This molecule also yielded a Kv1.1 IC50 (IonWorks electrophysiology) in assay [2] of less than 1.52 pM.
In assay [1], GVIINVKCKISRQCREPCKKAGMRFGKCMNGKCHCTPK (modifications not checked) [OSK1 L15R] had a Kv1.3 IC50 (IonWorks electrophysiology) of 13.7 pM, a WB/IFNg IC50 (human whole blood) of 0.116 nM and a WB/IL-2 IC50 (human whole blood) of 0.093 nM. In assay [2], this molecule displayed a Kv1.1 IC50 (IonWorks electrophysiology) of 2.16 pM.
On to GVEINVKCKISRQCLEPCKKAGMRFGKCMNGKCHCTPK (modifications not checked) [OSK1 I3E], for which, in assay [1], the Kv1.3 IC50 (IonWorks electrophysiology) is 22 pM, the WB/IFNg IC50 (human whole blood) is 0.16 nM and the WB/IL-2 IC50 (human whole blood) is 0.12 nM. In addition, the Kv1.1 IC50 (IonWorks electrophysiology) in assay [2] amounted to 43 pM.
In assay [1], GVIINVKCKISRQCLEPCKKAGMRFGKCRNGKCHCTPK (modifications not checked) [OSK1 M29R] registered a Kv1.3 IC50 (IonWorks electrophysiology) of 200 pM, a WB/IFNg IC50 (human whole blood) of 7.68 nM and a WB/IL-2 IC50 (human whole blood) of 11.7 nM. Besides, the Kv1.1 IC50 (IonWorks electrophysiology) in assay [2] was found to be 1870 pM.
In assay [1], EVIINVKCKISRQCLEPCKKAGMRFGKCMNGKCHCTPK (modifications not checked) [OSK1 G1E] returned a Kv1.3 IC50 (IonWorks electrophysiology) of 186 pM, a WB/IFNg IC50 (human whole blood) of 1.25 nM and a WB/IL-2 IC50 (human whole blood) of 1.22 nM. The molecule also had a Kv1.1 IC50 (IonWorks electrophysiology) in assay [2] of 51 pM.
In assay [1], GEIINVKCKISRQCLEPCKKAGMRFGKCMNGKCHCTPK (modifications not checked) [OSK1 V2E] displayed a Kv1.3 IC50 (IonWorks electrophysiology) of 36.2 pM, a WB/IFNg IC50 (human whole blood) of 0.184 nM and a WB/IL-2 IC50 (human whole blood) of 0.097 nM. In assay [2], this molecule showed a Kv1.1 IC50 (IonWorks electrophysiology) of 35 pM.
As for GVIINVKCKISRQCLEPCKKAGMRFGKCMNGKCHCTPR (modifications not checked) [OSK1 K38R], in assay [1], the Kv1.3 IC50 (IonWorks electrophysiology) is 15 pM, the WB/IFNg IC50 (human whole blood) is 0.04 nM and the WB/IL-2 IC50 (human whole blood) is 0.039 nM. This molecule also showed a Kv1.1 IC50 (IonWorks electrophysiology) in assay [2] of 1.84 pM.
With GVIINVKCRISRQCLEPCKKAGMRFGKCMNGKCHCTPK (modifications not checked) [OSK1 K9R], in assay [1], the Kv1.3 IC50 (IonWorks electrophysiology) was found to be 12 pM, the WB/IFNg IC50 (human whole blood) came to 0.077 nM and the WB/IL-2 IC50 (human whole blood) was 0.107 nM. For the same molecule, the Kv1.1 IC50 (IonWorks electrophysiology) in assay [2] came to 2.01 pM.
As to GVIINVKCKISRQCLEPCKKRGMRFGKCMNGKCHCTPK (modifications not checked) [OSK1 A21R], in assay [1], the Kv1.3 IC50 (IonWorks electrophysiology) is 14.9 pM, the WB/IFNg IC50 (human whole blood) came to 0.149 nM and the WB/IL-2 IC50 (human whole blood) worked out at 0.09 nM. In assay [2], this molecule gave a Kv1.1 IC50 (IonWorks electrophysiology) of 2.61 pM.
Taken in the same sequence, the figures for GVIINVKCKISRQCLEPCKKARMRFGKCMNGKCHCTPK (modifications not checked) [OSK1 G22R] were 23.7 pM, 0.349 nM, 0.292 nM and 3.49 pM.
For the molecule GVIINVKCKISRQCLEPCKKAGRRFGKCMNGKCHCTPK (modifications not checked) [OSK1 M23R], in assay [1], the Kv1.3 IC50 (IonWorks electrophysiology) came to 12.3 pM, the WB/IFNg IC50 (human whole blood) is 0.148 nM and the WB/IL-2 IC50 (human whole blood) came to 0.182 nM. In assay [2], this molecule came in with a Kv1.1 IC50 (IonWorks electrophysiology) of 2.01 pM.
Turning to GVIINVKCKIRRQCLEPCKKAGMRFGKCMNGKCHCTPK (modifications not checked) [OSK1 S11R], in assay [1], the Kv1.3 IC50 (IonWorks electrophysiology) is 16.7 pM, the WB/IFNg IC50 (human whole blood) was 4.07 nM and the WB/IL-2 IC50 (human whole blood) turned out to be 2.12 nM. Besides, in assay [2], the Kv1.1 IC50 (IonWorks electrophysiology) worked out at 210 pM.
In assay [1], GVIINVKCKISRQCLEPCKKAGMRFRKCMNGKCHCTPK (modifications not checked) [OSK1 G26R] had a Kv1.3 IC50 (IonWorks electrophysiology) greater than 3330 pM and a WB/IFNg IC50 (human whole blood) of 100 nM. In assay [2], this molecule came in with a Kv1.1 IC50 (IonWorks electrophysiology) greater than 3330 pM.
In assay [1], GVIINVKCKISRQCLRPCKKAGMRFGKCMNGKCHCTPK (modifications not checked) [OSK1 E16R] showed a Kv1.3 IC50 (IonWorks electrophysiology) of 10.4 pM, a WB/IFNg IC50 (human whole blood) of 0.454 nM and a WB/IL-2 IC50 (human whole blood) of 0.556 nM. In assay [2], this molecule yielded a Kv1.1 IC50 (IonWorks electrophysiology) of less than 1.52 pM.
Taken in the same sequence, the figures for GVIINVKCKISRQCLEPCKKAGMRFGKCMRGKCHCTPK (modifications not checked) [OSK1 N30R] were 18.9 pM, 0.445 nM, 0.405 nM and 45.7 pM.
As for GVIINVKCKISRQCLEPCKKAGMRFGKCMNGKCHCRPK (modifications not checked) [OSK1 T36R], in assay [1], the Kv1.3 IC50 (IonWorks electrophysiology) stood at 1310 pM, the WB/IFNg IC50 (human whole blood) came out at 10.1 nM and the WB/IL-2 IC50 (human whole blood) was found to be 9.7 nM. This molecule had a Kv1.1 IC50 (IonWorks electrophysiology) in assay [2] of 26.6 pM.
Taken in the same sequence, the figures for GVIINVKCKISRQCLEPCKKAGMRFGKCMNRKCHCTPK (modifications not checked) [OSK1 G31R] were 22.2 pM, 0.343 nM, 0.314 nM and 1.59 pM.
In the case of GVIINVKCKRSRQCLEPCKKAGMRFGKCMNGKCHCTPK (modifications not checked) [OSK1 I10R], in assay [1], the Kv1.3 IC50 (IonWorks electrophysiology) was 11.7 pM, the WB/IFNg IC50 (human whole blood) stood at 0.474 nM and the WB/IL-2 IC50 (human whole blood) turned out to be 0.307 nM. The molecule further showed a Kv1.1 IC50 (IonWorks electrophysiology) in assay [2] of 1.73 pM.
In assay [1], GVIINVKCKISRQCLEPCRKAGMRFGKCMNGKCHCTPK (modifications not checked) [OSK1 K19R] came in with a Kv1.3 IC50 (IonWorks electrophysiology) of 12.6 pM, a WB/IFNg IC50 (human whole blood) of 0.062 nM and a WB/IL-2 IC50 (human whole blood) of 0.044 nM. In assay [2], this molecule had a Kv1.1 IC50 (IonWorks electrophysiology) of 2.41 pM.
The corresponding values for GVIINVKCKISRQCLEPCKKAGMRFGRCMNGKCHCTPK (modifications not checked) [OSK1 K27R] are 1490 pM, 10.7 nM, 15.1 nM and greater than 3330 pM.
In assay [1], GVIINVKCKISRQCLEPCKRAGMRFGKCMNGKCHCTPK (modifications not checked) [OSK1 K20R] registered a Kv1.3 IC50 (IonWorks electrophysiology) of 9.85 pM, a WB/IFNg IC50 (human whole blood) of 0.083 nM and a WB/IL-2 IC50 (human whole blood) of 0.067 nM. In assay [2], this molecule came in with a Kv1.1 IC50 (IonWorks electrophysiology) of less than 1.52 pM.
In assay [1], GVIINVKCKISRQCLEPCKKAGMRFGKCMNGKCRCTPK (modifications not checked) [OSK1 H34R] returned a Kv1.3 IC50 (IonWorks electrophysiology) of 13.6 pM, a WB/IFNg IC50 (human whole blood) of 0.108 nM and a WB/IL-2 IC50 (human whole blood) of 0.092 nM. Moreover, in assay [2], the Kv1.1 IC50 (IonWorks electrophysiology) was determined as 4.49 pM.
The corresponding values for GVIINVKCKISRQCLEPCKKAGMRRGKCMNGKCHCTPK (modifications not checked) [OSK1 F25R] are greater than 3330 pM, 31 nM, 25 nM and 817 pM.
In assay [1], GVIINVKCKISRQCLEPCKKAGMRFGKCMNGKCHCTRK (modifications not checked) [OSK1 P37R] came in with a Kv1.3 IC50 (IonWorks electrophysiology) of 13.3 pM, a WB/IFNg IC50 (human whole blood) of 0.253 nM and a WB/IL-2 IC50 (human whole blood) of 0.229 nM. Further, the Kv1.1 IC50 (IonWorks electrophysiology) in assay [2] was 2.01 pM.
